Test results taken from patent publication EP0303681B1 (priority 1987, dated 1988).

Test: Pharmacokinetics / disposition of cyclophosphamide
Conditions: six patients, XMMME-001-RTA 0.1 mg/kg/day x 5 days in conjunction with cyclophosphamide IV push

O=P1(N(CCCl)CCCl)NCCCO1 (stereo not shown)
interaction between the immunotoxin and cyclophosphamide in their distribution, metabolism or excretion: no noticeable interaction
